Holding throughout (test): ITC; 200 uM protein (syringe) injected 19 x 2 uL into 20 uM pre-formed complex of light chain and MyoA peptide (cell, 1:1.1); 20 mM HEPES pH 7.5, 150 mM NaCl, 0.5 mM TCEP with 1 mM CaCl2; 25 °C; one-site model
For orientation: Isothermal titration calorimetry measures the heat released or taken up as one component is titrated into another.

Assay [1] concerns the target Pre-complex of TgELC2 with TgMyoA-C (T. gondii) (UniProt O00934).
The target of assay [2] is Pre-complex of TgELC2 E22A with TgMyoA-C (T. gondii) (UniProt O00934).
Assay [3] has as its target Pre-complex of TgELC2 R17A with TgMyoA-C (T. gondii) (UniProt O00934).

This is an account of results in PMC7555893, “Structural role of essential light chains in the apicomplexan glideosome” (Communications Biology, 2020).

pKd: −log10 of the molar value.

The pKd is −log10 of the Kd, conventionally taken in molar units. The low end stands for a high Kd, the high end for a low Kd. In general, stoichiometry N refers to the number of molecules, sites or subunits per partner or assembly. With MLC1-S N172A (domain or fragment), in assay [1], the negative logarithm of the Kd (pKd) is 8.37, the dH was -41.6 kcal/mol and the stoichiometry N is 0.84.
On to “T. gondii myosin light chain 1, short construct (MLC1-S) (domain or fragment)”, for which, in assay [2], the pKd was 8.28, the dH was -45.9 kcal/mol and the stoichiometry N came to 0.92. In assay [3], this substance had a stoichiometry N of 0.92.
